Assay results: patent US20250177537A1, “AN ANTIBIOTIC, METHOD OF PREPARATION AND METHOD OF TREATMENT THEREOF” (National Taiwan University, priority 2023, published 2025)

Each molecule was assayed on S. aureus (assay: MIC with or without C10P supplement (C10P antagonism)). Conditions: C10P ~10-fold molar excess relative to peptide.

Structure (SMILES) | bacterial growth inhibition in the presence of excess C10P
CCCCCCCCCCCCCCCC(=O)N[C@@H](CO)C(=O)N[C@H]1CNC(=O)[C@@H]2CCCN2C(=O)[C@H]([C@@H](C)CC)NC(=O)[C@@H]([C@@H](C)O)NC(=O)CNC(=O)[C@H](CO)NC(=O)CNC(=O)[C@H](CC(=O)O)NC(=O)CNC(=O)[C@H]2CCCCN2C1=O [B1] (Palmitoyl-S[Dap][dPip]GDGSG[d(aThr)]IP; lactam 2-C) | None of them were able to inhibit bacterial growth
CCCCCCCCCCCCCCCC(=O)N[C@@H](CO)C(=O)N[C@H]1CNC(=O)[C@@H]2CCCN2C(=O)[C@H]([C@@H](C)CC)NC(=O)[C@@H]([C@@H](C)O)NC(=O)CNC(=O)[C@H](CCO)NC(=O)CNC(=O)[C@H](CC(=O)O)NC(=O)CNC(=O)[C@H]2CCCCN2C1=O [B3, Ser-Dap-Pip-Gly-Asp-Gly-Hse-Gly-Thr-Ile-Pro] (Palmitoyl-S[Dap][dPip]GDG[hSer]G[d(aThr)]IP; lactam 2-C) | None of them were able to inhibit bacterial growth
CCCCCCCCCCCCCCCC(=O)N[C@@H](CCO)C(=O)N[C@H]1CNC(=O)[C@@H]2CCCN2C(=O)[C@H]([C@@H](C)CC)NC(=O)[C@@H]([C@@H](C)O)NC(=O)CNC(=O)[C@H](CO)NC(=O)CNC(=O)[C@H](CC(=O)O)NC(=O)CNC(=O)[C@H]2CCCCN2C1=O [B4] (Palmitoyl-[hSer][Dap][dPip]GDGSG[d(aThr)]IP; lactam 2-C) | None of them were able to inhibit bacterial growth

Bridge positions count the residues as written; N and C are the ends. Square brackets hold non-standard residues; d marks the D form. Peptide text beside a SMILES is read from it. * marks the point of attachment. d(aThr) = C[C@@H](O)[C@@H](N)C(=O)O; Palmitoyl = CCCCCCCCCCCCCCCC(=O)*; dPip = O=C(O)[C@H]1CCCCN1; hSer = N[C@@H](CCO)C(=O)O; Dap = NC[C@H](N)C(=O)O
